US6903108B2, “Fungicidal mixtures based on amide compounds and pyridine derivatives” (BASF Aktiengesellschaft, priority 1997, dated 2005)

Key:
[1] = test system: Botrytis cinerea; experiment: Activity against Botrytis cinerea on bell pepper leaves (Use Example 1); type: in vivo; settings: bell pepper seedlings, protective spray, evaluated after 5 days
[2] = test system: Botrytis cinerea; experiment: Activity against Botrytis cinerea on bell peppers, green fruit disks (Use Example 2); type: in vivo; settings: 31 ppm active ingredient in the spray liquor; green bell pepper fruit disks, 4 days at 18° C.

Measured: Efficacy in % of the untreated control

captan
0%: [1]; 8 ppm active ingredient in the spray liquor | [1]; 16 ppm active ingredient in the spray liquor | [1]; 31 ppm active ingredient in the spray liquor | [2]
